For data set [1], the system named is L. donovani (MHOM/ET/67/L82). The data set can be described thus: Intracellular amastigote susceptibility assay (primary peritoneal mouse macrophages). The data set is classed as cell-based. The conditions noted are these: selectivity index (CC50/IC50). The protocol: (§1) To obtain primary peritoneal macrophages, Swiss mice were stimulated by intraperitoneal injection of 1 mL 2% starch in PBS 48 h prior to cell collection. Animals were euthanized with a CO2 overdose and upon removal of the skin, 10 mL of RPMI-1640 (Life Technologies) was injected into the peritoneal cavity to collect the macrophages that were then seeded into 96-well plates at a final concentration of 30,000 cells/well in 100 µL of RPMI-1640 macrophage medium, supplemented with 5% iFCS, 2% penicillin/streptomycin and 1% L-glutamine (Life technologies). After 24 h, the cells were infected with spleen derived L. infantum (MHOM/MA(BE)/67/ITMAP263) or L. donovani (MHOM/ET/67/L82) amastigotes obtained from heavily infected donor hamsters. The amastigotes were purified using two centrifugation steps and diluted to obtain an infection ratio of 5:1 in RPMI-1640 cell culture medium. After incubation for 2 h, compound dilutions were added. Drug activity was evaluated after a 96-h incubation period without washing of the cells and without renewal of the drugged culture medium. Cells were stained with Giemsa for microscopic evaluation of cellular amastigote burdens. Percentage reduction compared to the burdens in the infected non-treated control wells was used as a measure for drug activity.

For data set [2], the system named is L. infantum (MHOM/MA/67/ITMAP263). Described as above. The data set is classed as cell-based. The conditions noted are these: selectivity index (CC50/IC50). As to the method:
as §1

Regarding `Cc1[nH]c2nc(N)nc(C)c2c1-c1ccc(F)c2c1OCO2` [Compound C2, 5-(7-fluoro-1,3-benzodioxol-4-yl)-4,6-dimethyl-7H-pyrrolo[2,3-d]pyrimidin-2-amine], the SI is more than 580 in data set [1] and more than 310 in data set [2].

The values above are taken from patent EP4341264B1, “PYRROLOPIRIMIDINE DERIVATIVES AND THEIR USE IN THE TREATMENT OF LEISHMANIASIS” (Drugs for Neglected Diseases Initiative, priority 2021, dated 2022).
